Compound potency records, mixed from different reports. Data source: NIAID ChemDB in PubChem.

Shared fields: growth or infection tests; organism: HIV-1

Blank or dashed fields: not listed here. Two numbers with a dash give a range or band. ECn is the concentration giving n% inhibition of infection, replication or growth. Rows are shuffled and stem from different studies.

SMILES,strain or isolate,measure,mutations,method,cells,result
CCOC(=O)c1cc(NC(=S)OC(C)C)ccc1SC,IIIB,EC50,-,syncytia,CEM,0.191 µM
O=C1c2c(O)c(=O)n(CC3CCCN4CCCCC34)c(=O)n2CCN1Cc1ccc(F)cc1,-,EC95,-,p24,MT-4,<10 µM
Cc1ncc(-c2ccc(NCCOc3ccc(F)cc3F)nc2)c(N2CCC(C)(C)CC2)c1[C@H](OC(C)(C)C)C(=O)O,NL4-3,EC50,-,luminescence,MT-2,0.0016 µM
COc1ccc(-n2c(=O)c(O)c3n(c2=O)CCN(Cc2ccc(F)cc2)C3=O)cc1,-,EC95,-,p24,MT-4,<10 µM
CC1CN(C(=O)C(C)n2ccn3c(=O)c(O)c(-c4ncc(Cc5ccc(F)cc5)s4)nc23)CC(C)O1,-,EC50,QHGS,luciferase,HEK 293,1–10 µM
CC(C)C1=C2[C@H]3CC[C@@H]4[C@@]5(C)CC[C@H](OC(=O)[C@H]6C[C@@H](C(=O)O)C6(C)C)C(C)(C)[C@@H]5CC[C@@]4(C)[C@]3(C)CC[C@@]2(CC(=O)NC[C@H](NC(=O)c2ccc(Cl)cc2)C(C)O)CC1=O,92HT599,EC50,-,p24 / ELISA,MT-2,<1 µM
Nc1ccn([C@H]2CC[C@@H](CO)O2)c(=O)n1,NL4-3,EC50,N126K,β-galactosidase,-,0.256 µM
Cc1ncc(-c2ccc(O[C@@H](C)COc3ccccc3)nc2)c(N2CCC(C)(C)CC2)c1[C@H](OC(C)(C)C)C(=O)O,NL4-3,EC50,-,luminescence,MT-2,0.0035 µM
CC[C@H](C)OC(=S)Nc1ccc(Cl)c(C(=O)OC(C)C)c1,-,EC50,RT-E138K,syncytia,CEM,0.212 µM
CC(C)C1=C2[C@H]3CC[C@@H]4[C@@]5(C)CC[C@H](OC(=O)[C@H]6C[C@@H](C(=O)O)C6(C)C)C(C)(C)[C@@H]5CC[C@@]4(C)[C@]3(C)CC[C@@]2(CCNC(=O)c2ccc(S(C)(=O)=O)cc2)CC1=O,92HT599,EC50,-,p24 / ELISA,MT-2,<1 µM
CCC(C)OC(=O)c1cc(NC(=S)OC(C)C)ccc1Cl,-,EC50,RT-V106A,syncytia,CEM,3.032 µM
CC(C)(C)C1CCC(n2c(=O)c(O)c3n(c2=O)CCN(Cc2ccc(F)cc2)C3=O)CC1,-,EC50,-,p24,MT-4,<10 µM
CC(C)OC(=S)Nc1ccc(Cl)c(C(=O)SC(C)C)c1,-,EC50,RT-E138K,syncytia,CEM,1.205 µM
CCN1c2ncc(CCOc3ccc(C(=O)NS(=O)(=O)c4ccccc4)cc3C)cc2C(=O)N(C)c2cccnc21,IIIB,EC50,-,p24,C8166,0.01–0.05 µM
Cc1ncc(-c2ccc(OCCOc3ccccc3)cn2)c(N2CCC(C)(C)CC2)c1[C@H](OC(C)(C)C)C(=O)O,NL4-3,EC50,-,luminescence,MT-2,0.0012 µM
CCOC(=O)CCNC(=O)Nc1cccc2c(C(=O)C(=O)N3CCN(C(=O)c4ccccc4)C[C@H]3C)c[nH]c12,-,EC50,-,luciferase / reporter gene,HeLa,<1 µM
CC(C)c1c(Cc2ccccc2)n(COCc2ccccc2)c(=O)[nH]c1=O,SF33,EC50,-,p24 / ELISA,PBMC,<0.0024 µM
CC(C)OC(=S)Nc1ccc(Cl)c(C(=O)OC(C(C)C)C(C)C)c1,-,EC50,RT-Y181C,syncytia,CEM,>2.689 µM
Cc1ccc(CNCC[C@@]23CC[C@]4(C)[C@H](CC[C@@H]5[C@@]6(C)CC[C@H](OC(=O)[C@H]7C[C@@H](C(=O)O)C7(C)C)C(C)(C)[C@@H]6CC[C@]54C)C2=C(C(C)C)C(=O)C3)cc1,92HT599,EC50,-,p24 / ELISA,MT-2,<1 µM
CCOC(=O)CCCNC(=O)Nc1cccc2c(C(=O)C(=O)N3CCC(=C(C#N)c4ccccc4)CC3)c[nH]c12,-,EC50,-,luciferase / reporter gene,HeLa,<1 µM
C[C@H](Cn1cnc2c(N)ncnc21)OCP(=O)(O)O,Clinical isolate,EC50,M41L/D67N/K70R/M184V/L210W/T215Y/K219E,recombinant virus assay,MT-2,0.0092 µM
C/C=C\COc1cc(NC(=S)OC(C)C)ccc1OC,-,EC50,RT-Y181C,syncytia,CEM,12.53 µM
CCC(F)(F)COc1ccc(-c2cnc(C)c([C@H](OC(C)(C)C)C(=O)O)c2N2CCC(C)(C)CC2)nc1,NL4-3,EC50,-,luminescence,MT-2,0.0056 µM
CN1CCN(C(=O)Cn2ccn3c(=O)c(O)c(-c4ncc(Cc5ccc(F)cc5)s4)nc23)CC1,-,EC50,Q148H/G140S,luciferase,HEK 293,>1 µM
C/C=C\COc1cc(NC(=S)OC(C)C)ccc1Cl,-,EC50,RT-V106A,syncytia,CEM,2 µM
CCN1c2ncc(CCOc3ccc(-c4ccc[n+]([O-])c4C)cc3C)cc2C(=O)N(C)c2cccnc21,-,EC50,RT-K103N Y181C,p24,C8166,<0.01 µM
CC(C)OC(=O)c1cc(NC(=S)OCC2CC2)ccc1Cl,-,EC50,RT-Y181C,syncytia,CEM,18.3 µM
COc1cc(-c2ccc(N=Nc3ccc4c(S(=O)(=O)O)cc(S(=O)(=O)O)c(N)c4c3O)c(OC)c2)ccc1N=Nc1ccc2c(S(=O)(=O)O)cc(S(=O)(=O)O)c(N)c2c1O,214,EC50,-,RT activity,CEM + CEM-SS,1.1 µM
CCC(CC)OC(=O)c1cc(NC(=S)OC(C)C)ccc1Cl,-,EC50,RT-L100I,syncytia,CEM,2.036 µM
CC(=O)c1c(C)nc(-c2ccccc2)nc1NC(=O)c1ccccc1,D-92UG046,EC50,-,GFP / fluorescence,HeLa,1 µM
CC(C)OC(=S)Nc1ccc(Cl)c(C(=O)OC2CC2)c1,-,EC50,RT-L100I,syncytia,CEM,2.868 µM
Cc1ccccc1OCCOc1ccc(-c2cnc(C)c([C@H](OC(C)(C)C)C(=O)O)c2N2CCC(C)(C)CC2)nc1,NL4-3,EC50,-,luminescence,MT-2,0.0014 µM
CC(C)NC(=O)N(C)CCC1CN(Cc2ccc(F)cc2)C(=O)c2c(O)c(=O)n(C(C)C)c(=O)n21,-,EC50,-,p24,MT-4,<10 µM
CN1CCN(C(=O)c2ccc3c(=O)c4ccccc4[nH]c3c2)CC1,IIIB,EC50,-,syncytia,CEM,0.019 µM
Cc1ncc(-c2cnc(OCC3CC3)c(F)c2)c(N2CCC(C)(C)CC2)c1[C@H](OC(C)(C)C)C(=O)O,NL4-3,EC50,-,luminescence,MT-2,0.0033 µM
N#CC1=CC2Nc3ccccc3C2N(c2ccc([N+](=O)[O-])cc2)C1=O,A-92UG029,EC50,-,GFP / fluorescence,HeLa,1 µM
CC(=O)Nc1ccc(F)c2c(C(=O)C(=O)N3CCN(C(=O)c4ccccc4)CC3)c[nH]c12,-,EC50,-,luciferase / reporter gene,HeLa,<1 µM
CC(C)C1=C2[C@H]3CC[C@@H]4[C@@]5(C)CC[C@H](OC(=O)[C@H]6C[C@@H](C(=O)O)C6(C)C)C(C)(C)[C@@H]5CC[C@@]4(C)[C@]3(C)CC[C@@]2(CCNCc2ccc(Cl)cn2)CC1=O,92HT599,EC50,-,p24 / ELISA,MT-2,<1 µM
O=C(Cn1ccn2c(=O)c(O)c(-c3ncc(Cc4ccc(F)cc4)s3)nc12)N1CCOCC1,-,EC50,-,luciferase,HEK 293,0.001–0.1 µM
CC(C)C1=C2[C@H]3CC[C@@H]4[C@@]5(C)CC[C@H](OC(=O)[C@H]6C[C@@H](C(=O)O)C6(C)C)C(C)(C)[C@@H]5CC[C@@]4(C)[C@]3(C)CC[C@@]2(CC(=O)NC(CCN)CNC(=O)c2ccc(Cl)cc2)CC1=O,92HT599,EC50,-,p24 / ELISA,MT-2,<1 µM
CC[C@@H](C)OC(=S)Nc1ccc(Cl)c(C(=O)OC(C)C)c1,-,EC50,RT-L100I,syncytia,CEM,0.91 µM
Nc1nccc2c1ncn2[C@@H]1C=C(CO)[C@@H](O)[C@H]1O,18601 unpaired,EC50,-,p24,PBMC,0.046 µM
CC(=O)COc1cc(NC(=S)OC(C)C)ccc1Cl,IIIB,EC50,-,syncytia,CEM,1.658 µM
Clc1cc(CN2CCCNCCNCCCNCC2)cc(Cl)n1,ADA R5,EC50,-,p24,PBMC,6 µM
C[C@H]1CN(C(=O)Cn2ccn3c(=O)c(O)c(-c4ncc(Cc5ccc(F)cc5S(C)(=O)=O)s4)nc23)C[C@H](C)O1,-,EC50,QHGS,luciferase,HEK 293,0.5–1 µM
CC(C)OC(=S)Nc1ccc(Cl)c(COC(C)(C)C)c1,-,EC50,RT-E138K,syncytia,CEM,≥31.66 µM
Nc1nccc2c1ncn2[C@@H]1O[C@H](CO)[C@@H](O)[C@H]1O,14A-6/89 POST-AZT,EC50,-,p24,PBMC,0.059 µM
CCN1c2ncc(CCOc3ccc(C(=O)Nc4ccc[n+]([O-])c4)cc3C)cc2C(=O)Nc2c(C)ccnc21,-,EC50,RT-K103N Y181C,p24,C8166,<0.01 µM
CN1CCC(n2ccn3c(=O)c(O)c(-c4ncc(Cc5ccc(F)cc5)s4)nc23)C1=O,-,EC50,QHGS,luciferase,HEK 293,0.5–1 µM
CCCCOC(=O)c1cc(NC(=S)OC(C)C)ccc1Cl,-,EC50,RT-Y181C,syncytia,CEM,1.9 µM
C[C@H]1CN(C(=O)Cn2ccn3c(=O)c(O)c(-c4ncc(Cc5ccc(F)cc5)s4)nc23)C[C@H](C)O1,-,EC50,Q148H/G140S,luciferase,HEK 293,0.1–1 µM
COC(=O)c1cc(NC(=S)OC(C)C)ccc1Cl,IIIB,EC50,-,syncytia,CEM,1.738 µM
CCOC(=O)c1cccc(NC(=O)Nc2cccc3c(C(=O)C(=O)N4CCN(C(=O)c5ccccc5)C[C@H]4C)c[nH]c23)c1,-,EC50,-,luciferase / reporter gene,HeLa,<1 µM
C/C=C/COc1cc(NC(=S)OC(C)C)ccc1Cl,-,EC50,RT-L100I,syncytia,CEM,1.334 µM
CC(C)CN(C[C@@H](O)[C@H](Cc1ccccc1)NC(=O)O[C@H]1CO[C@H]2OCC[C@H]21)S(=O)(=O)c1ccc2c(c1)OCO2,NL4-3 (LPV1),EC50,L10F M46I I54V V82A,p24,MT-4,0.0075 µM
C#C[C@@]1(CO)C=C[C@H](n2cc(C)c(=O)[nH]c2=O)O1,Clinical isolate,EC50,D67N/T69N/K70R/A98G/M184V/G190S/T215F/K219Q,recombinant virus assay,MT-2,4.199 µM
CCN1c2ncc(CCOc3ccc(-c4ccc(C(=O)O)cc4)cc3)cc2C(=O)N(C)c2cccnc21,-,EC50,RT-K103N Y181C,p24,C8166,>0.05 µM
COc1ccc(C(=O)NC[C@H](O)[C@@]23CC[C@]4(C)[C@H](CC[C@@H]5[C@@]6(C)CC[C@H](OC(=O)[C@H]7C[C@@H](C(=O)O)C7(C)C)C(C)(C)[C@@H]6CC[C@]54C)C2=C(C(C)C)C(=O)C3)cc1,92HT599,EC50,-,p24 / ELISA,MT-2,<1 µM
CC(C)(C)OC(=O)c1cc(NC(=S)OC(C)(C)C)ccc1Cl,-,EC50,RT-V106A,syncytia,CEM,29.08 µM
O=C(NCc1ccc(Cl)c(Cl)c1)c1nc2n(CC(=O)N3CCOCC3)cc(CN3CCOCC3)n2c(=O)c1O,-,EC50,QHGS,luciferase,HEK 293,0.5–1 µM

The last 3 rows once more:

SMILES	strain or isolate	measure	mutations	method	cells	result
COc1ccc(C(=O)NC[C@H](O)[C@@]23CC[C@]4(C)[C@H](CC[C@@H]5[C@@]6(C)CC[C@H](OC(=O)[C@H]7C[C@@H](C(=O)O)C7(C)C)C(C)(C)[C@@H]6CC[C@]54C)C2=C(C(C)C)C(=O)C3)cc1	92HT599	EC50	-	p24 / ELISA	MT-2	<1 µM
CC(C)(C)OC(=O)c1cc(NC(=S)OC(C)(C)C)ccc1Cl	-	EC50	RT-V106A	syncytia	CEM	29.08 µM
O=C(NCc1ccc(Cl)c(Cl)c1)c1nc2n(CC(=O)N3CCOCC3)cc(CN3CCOCC3)n2c(=O)c1O	-	EC50	QHGS	luciferase	HEK 293	0.5–1 µM